Protein sequences can lack the tags named with them.
Target: T1, E1.40COR30 (ELP-HCV core 30 aa fusion) (synthetic construct) (UniProt P27959)
T1 sequence: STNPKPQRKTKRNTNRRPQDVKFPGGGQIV
Test: binding assay
Conditions: recruitment into coacervate upon LLPS, 0.1 mM protein, 0.5 uM ssDNA, three media; purified recombinant protein; protein details: ELP (VPGVG)40 fusion; single-stranded DNA

Does “TTTTTCCTAGAGAGTAGAGCCTGCTTCG [ssDNA 28 nt]” bind?
Result: binds

From patent publication US20230407367, “INTRINSICALLY DISORDERED PROTEINS FOR EXTRACTION OF NUCLEIC ACIDS” (published 2023)
